Where “and” joins values, the source holds several entries; their conditions need not be identical. Identical values can stand only once.
Columns and labels:
[1] = system: T. brucei rhodesiense, strain STIB900 trypomastigote forms; experiment: In vitro growth inhibition assay of Trypanosoma brucei rhodesiense STIB900 (Alamar blue); format: cell-based; conditions: L6 vs T. b. rhodesiense STIB900
Experimental: Trypanocidal activity was determined in vitro against axenically grown bloodstream-forms of T. b. rhodesiense STIB900 as described in Refs. [76, 77] and detailed in the Supplementary Materials. Parasite proliferation was assessed via fluorescence of the redox-sensitive dye resazurin (Alamar blue). The drug melarsoprol was used as the positive control. […]
1.2 In vitro growth inhibition assay of Trypanosoma brucei rhodesiense
Trypanosoma brucei rhodesiense, STIB 900 strain, and the standard drug, melarsoprol, were used for the assay. Minimum Essential Medium (50 μL) supplemented with 25 mM HEPES, 1g/L additional glucose, 1% MEM non-essential amino acids (100x), 0.2 mM 2-mercaptoethanol, 1 mM Na-pyruvate and 15% heat-inactivated horse serum was added to each well of a 96-well microtiter plate. Serial drug dilutions of 11 three-fold dilution steps covering a range from 100 to 0.002 μg/mL were prepared. Then […]
mL double-distilled water) was then added to each well and incubation continued for a further 2–4 h.
Then, the plates were read with a Spectramax Gemini XS microplate fluorometer (Molecular Devices Cooperation, Sunnyvale, CA, USA) using an excitation wavelength of 536 nm and an emission wavelength of 588 nm. The IC50 values were calculated from the sigmoidal inhibition curves using the microplate reader software Softmax Pro (Molecular Devices Cooperation, Sunnyvale, CA, USA).
Melarsoprol was used as control. […]

[2] = system: P. falciparum, strain NF54, erythrocytic stages; experiment: In vitro growth inhibition assay of Plasmodium falciparum NF54 ([3H]-hypoxanthine incorporation); format: cell-based; conditions: L6 vs P. falciparum NF54
Experimental: Antimalarial activity was determined in vitro against the erythrocytic stages of P. falciparum using the drug-sensitive strain NF54. Parasite proliferation was assessed by incorporation of [^3H]-hypoxanthine using a modified version of [75]; for details, please refer to the Supplementary Materials. The positive control was chloroquine.
1. Experimental of biological testing
1.1 In vitro growth inhibition assay of Plasmodium falciparum NF54
Plasmodium falciparum, strain NF54, erythrocytic stages, and the standard drug, chloroquine, were used for the assay. The parasite cultures incubated in RPMI 1640 medium with 5% AlbuMAXTM (without hypoxanthine) were exposed to serial drug dilutions in microtiter plates. After 48 h of incubation at 37 °C in a reduced oxygen atmosphere, 0.5 μCi [3H]-hypoxanthine was added to each well of the plate. Cultures were incubated for a further 24 h before they were harvested onto glass-fiber filters and washed with distilled water. The radioactivity was counted using a BetaplateTM liquid scintillation […]
counter (Wallac, Zurich). […]
concentration and expressed as percentage of the untreated controls. IC50 values were calculated from the sigmoidal inhibition curves using Microsoft Excel. Chloroquine was used as control. […]

SMILES | SI (IC50 in L6 cells/IC50 in T. b. rhodesiense) [1] | SI (IC50 in L6 cells/IC50 in P. falciparum) [2]
O=C1C=CC2(C=C1)CCC(=O)O2 [Compound 4h, 1-Oxaspiro [4.5]deca-6,9-diene-2,8-dione] | 0.09 | 0.15
COC(=O)CC1(O)C=CC(=O)C(Cl)=C1 (stereo not shown) [Compound 4c, Methyl 2-(3-chloro-1-hydroxy-4-oxocyclohexa-2,5-dien-1-yl)acetate] | 9.36 | 0.53
COC(=O)CC1(O)C=CC(=O)C(Br)=C1 (stereo not shown) [Compound 4d, Methyl 2-(3-bromo-1-hydroxy-4-oxocyclohexa-2,5-dien-1-yl)acetate] | 5.09 | 0.71
COC(=O)CC1(O)C=CC(=O)C(F)=C1 (stereo not shown) [Compound 4b, Methyl 2-(3-fluoro-1-hydroxy-4-oxocyclohexa-2,5-dien-1-yl)acetate] | 8.42 | 1.02
COC(=O)CCC1(O)C=CC(=O)C=C1 [Compound 4g, Methyl 3-(1-hydroxy-4-oxocyclohexa-2,5-dien-1-yl)propanoate] | >20.5 | > 12 and >12.3
O=C1C=CC(=O)c2cc(F)c(F)cc21 [Compound 5e, 6,7-Difluoro-1,4-dihydronaphthalene-1,4-dione] | 28.92 | 6.97
COC(=O)CC1(O)C=C(Br)C(=O)C(Br)=C1 [Compound 4f, Methyl 2-(3,5-dibromo-1-hydroxy-4-oxocyclohexa-2,5-dien-1-yl)acetate] | 8.29 | 0.51
O=C1C=CC(=O)c2cc(F)ccc21 [Compound 5d, 6-Fluoro-1,4-dihydronaphthalene-1,4-dione] | 23.33 | 3.21
COC(=O)CC1(O)C=C(Cl)C(=O)C(Cl)=C1 [Compound 4e, Methyl 2-(3,5-dichloro-1-hydroxy-4-oxocyclohexa-2,5-dien-1-yl)acetate] | 11.6 | 0.47
COC(=O)/C=C/C1(O)C=CC(=O)C=C1 [Compound 4i, Methyl (2E)-3-(1-hydroxy-4-oxocyclohexa-2,5-dien-1-yl)prop-2-enoate] | 5.27 | 0.87
COC(=O)CC1(O)C=CC(=O)C=C1 [Compound 4a, Methyl 2-(1-hydroxy-4-oxocyclohexa-2,5-dien-1-yl)acetate] | 0.66 | 0.40
